Anti-infective test results gathered from many reports (values: NIAID ChemDB through PubChem).

All rows: tests on isolated targets; organism: HIV-1; protein: Protease; method: fluorescence; measure: IC50

Rows are shuffled and stem from different studies. Two numbers with a dash give a range or band. An empty or dashed field is not shown. ICn: concentration for n% inhibition.

{"structure": "Cc1ccc(CO[C@@H]2[C@H](O)[C@@H](O)[C@@H](OCc3ccc(C)cn3)[C@@H](Cc3ccccc3)S(=O)(=O)[C@@H]2Cc2ccccc2)nc1", "result": "<2 µM"}
{"structure": "O=C(/C=C/c1ccc(O)c2c1[C@H](C(=O)O)[C@@H](c1ccc(O)c(O)c1)O2)O[C@H](Cc1ccc(O)c(O)c1)C(=O)O", "result": "25.39 µg/mL"}
{"structure": "CC(C)[C@H](NC(=O)N(C)Cc1ccccn1)C(=O)N[C@@H](Cc1ccccc1)[C@H](O)[C@@H](O)[C@H](Cc1ccccc1)NC(=O)[C@@H](NC(=O)N(C)Cc1ccccn1)C(C)C", "result": "<0.001 µM"}
{"structure": "CC(C)(C)OC(=O)N[C@H]1C[C@@H](O)[C@@H](O)[C@H](Cc2ccccc2)N(Cc2ccccc2)C1=O", "result": "55.3 µM"}
{"structure": "O=C(/C=C/c1ccc(O)c2c1[C@H](C(=O)O)[C@H](c1ccc(O)c(O)c1)O2)O[C@H](Cc1ccc(O)c(O)c1)C(=O)O", "result": "25.2 µg/mL"}
{"structure": "O=c1c(O)c(-c2ccc(O)cc2O)oc2cc(O)cc(O)c12", "result": "24 µM"}
{"structure": "CC(C)[C@H](NC(=O)OCc1ccccn1)C(=O)N[C@@H](Cc1ccccc1)[C@H](O)[C@H](O)[C@H](Cc1ccccc1)NC(=O)CCC(=O)O", "result": "<0.01 µM"}
{"structure": "CC(=O)N[C@@H](Cc1ccc(O)cc1)C(=O)N[C@@H](CCC(=O)O)C(=O)N[C@@H](CC(C)C)C(=O)O", "result": "34 µM"}
{"structure": "Cc1ccnc(CO[C@@H]2[C@H](O)[C@@H](O)[C@@H](OCc3cc(C)ccn3)[C@@H](Cc3ccccc3)S(=O)(=O)[C@@H]2Cc2ccccc2)c1", "result": "10–50 µM"}
{"structure": "CC(C)(C)NC(=O)C1(C)OC(=O)C(CCc2ccccc2)=C1O", "result": "70 µM"}
{"structure": "CC(C)[C@H](NC(=O)COc1ccccc1)C(=O)N[C@@H](Cc1ccccc1)[C@H](O)[C@H]1O[C@@H]1CNC(=O)COc1ccccc1", "result": "39 µM"}
{"structure": "CC[C@H](C)[C@H](NC(=O)[C@@H]1CCCN1C[C@@H](O)[C@H](Cc1ccccc1)NC(=O)[C@H](CC(N)=O)NC(=O)[C@H](CC(C)C)NC(C)=O)C(=O)N[C@H](C(=O)OC)C(C)C", "result": "0.06 µM"}
{"structure": "CC[C@H](C)[C@H](NC(=O)CNC(=O)CSC[C@@H]1CC[N+]2=C(N[C@H](CO[Si](c3ccccc3)(c3ccccc3)C(C)(C)C)CC2)N1)C(=O)N[C@@H](CO)C(=O)N[C@@H](Cc1ccc(O)cc1)C(=O)N[C@@H](CC(N)=O)C(=O)N[C@@H](CC(C)C)C(=O)OC", "result": "5 µM"}
{"structure": "O=[N+]([O-])c1ccc(CO[C@@H]2[C@H](O)[C@@H](O)[C@@H](OCc3ccc([N+](=O)[O-])c(C(F)(F)F)c3)[C@@H](Cc3ccccc3)S(=O)(=O)[C@@H]2Cc2ccccc2)cc1C(F)(F)F", "result": "<2 µM"}
{"structure": "CC(C)C[C@H](NC(=O)[C@H](CCC(=O)O)NC(=O)[C@@H](N)Cc1ccc(O)cc1)C(=O)O", "result": "75 µM"}
{"structure": "CCN(CC)c1ccc2cc3ccc(=[N+](CC)CC)cc-3oc2c1.CCN(CC)c1ccc2cc3ccc(=[N+](CC)CC)cc-3oc2c1.[Cl-].[Cl-].[Cl-].[Cl-].[Cl][Fe+][Cl].[Cl][Fe+][Cl]", "result": "17 µM"}
{"structure": "O=C(O[C@@H]1O[C@@H]2COC(=O)c3cc(O)c(O)c(O)c3-c3c(cc(O)c(O)c3O)C(=O)O[C@H]([C@H]1O)[C@@H]2O)c1cc(O)c(O)c(O)c1", "result": "20.7 µM"}
{"structure": "Nc1cccc(CO[C@@H]2[C@H](O)[C@@H](O)[C@@H](OCc3cccc(N)c3)[C@@H](Cc3ccccc3)S(=O)(=O)[C@@H]2Cc2ccccc2)c1", "result": "<2 µM"}
{"structure": "CC(C)[C@H](NC(=O)N(C)Cc1ccccn1)C(=O)N[C@@H](Cc1ccccc1)[C@H](O)[C@H](O)[C@H](Cc1ccccc1)NC(=O)[C@@H](NC(=O)N(C)Cc1ccccn1)C(C)C", "result": "<0.001 µM"}
{"structure": "O=S1(=O)[C@H](Cc2ccccc2)[C@H](OCc2cccc(Br)c2)[C@H](O)[C@@H](O)[C@@H](OCc2cccc(Br)c2)[C@H]1Cc1ccccc1", "result": "<2 µM"}
{"structure": "CC[C@H](C)[C@H](NC(=O)[C@H](Cc1ccccc1)N[C@@H](O)CC(=O)[C@H](Cc1ccccc1)NC(=O)[C@@H](NC(=O)[C@H](CC(C)C)NC(C)=O)C(C)C)C(=O)N[C@H](C(N)=O)C(C)C", "result": "0.005 µM"}
{"structure": "CC(C)[C@H](NC(=O)Cc1cccnc1)C(=O)N[C@@H](Cc1ccccc1)[C@@H](O)[C@H](O)[C@H](Cc1ccccc1)NC(=O)[C@@H](NC(=O)Cc1cccnc1)C(C)C", "result": "<0.01 µM"}
{"structure": "O=c1c(O)c(-c2ccc(O)c(O)c2)oc2cc(O)ccc12", "result": "50 µM"}
{"structure": "CCC(C)[C@H](NC(=O)CCCCCCCCCCCCCCC(=O)N[C@H](C(=O)N[C@@H](CC(C)C)C(=O)N[C@@H](CC(N)=O)C(=O)N[C@@H](Cc1ccccc1)C(=O)O)C(C)O)C(=O)N[C@H](C(=O)N[C@@H](CC(C)C)C(=O)N[C@@H](Cc1c[nH]c2ccccc12)C(=O)O)C(C)O", "result": "0.8 µM"}
{"structure": "O=C(O)CCCCCCC(=O)O", "result": ">1000 µM"}
{"structure": "CCCCCCCCCCCCCCCC(=O)N[C@@H](CO)C(=O)N[C@@H](Cc1ccc2ccccc2c1)C(=O)N[C@@H](CC(=O)O)C(=O)N[C@@H](CC(C)C)C(=O)O", "result": "0.2 µM"}
{"structure": "CC[C@H](C)[C@H](NC(=O)[C@@H]1CCCN1C[C@H](O)[C@H](Cc1ccccc1)NC(=O)[C@H](CC(N)=O)NC(=O)[C@H](CC(C)C)NC(C)=O)C(=O)N[C@H](C(=O)OC)C(C)C", "result": "0.009 µM"}
{"structure": "N#Cc1ccc(O[C@@H]2[C@H](O)[C@@H](O)[C@@H](Oc3ccc(C#N)cc3)CS(=O)(=O)[C@@H]2Cc2ccccc2)cc1", "result": "2–10 µM"}
{"structure": "CC(C)[C@H](NC(=O)c1ccc2ccccc2n1)C(=O)N[C@@H](Cc1ccccc1)[C@H](O)CN1CC[C@@H](OCc2ccncc2)C[C@H]1C(=O)NC(C)(C)C", "strain": "IIIB", "result": "0.004 µM"}
{"structure": "CC(C)(C)OC(=O)N[C@@H]1C[C@H](O)[C@H](O)CN(Cc2ccccc2)C1=O", "result": "95.3 µM"}
{"structure": "CC(C)[C@H](NC(=O)OCc1ccncc1)C(=O)N[C@@H](Cc1ccccc1)[C@H](O)[C@@H](O)[C@H](Cc1ccccc1)NC(=O)[C@@H](NC(=O)OCc1ccncc1)C(C)C", "result": ">0.002 µM"}
{"structure": "CC(C)(C)OC(=O)N[C@H]1C(=O)N(Cc2ccccc2)C[C@H]2O[C@H]2[C@@H]1c1ccccc1", "result": "19.3 µM"}
{"structure": "O=C(O)CCCCCCCCCCCCC(=O)O", "result": ">1000 µM"}

Again, the opening 3 rows:

structure,strain,result
Cc1ccc(CO[C@@H]2[C@H](O)[C@@H](O)[C@@H](OCc3ccc(C)cn3)[C@@H](Cc3ccccc3)S(=O)(=O)[C@@H]2Cc2ccccc2)nc1,-,<2 µM
O=C(/C=C/c1ccc(O)c2c1[C@H](C(=O)O)[C@@H](c1ccc(O)c(O)c1)O2)O[C@H](Cc1ccc(O)c(O)c1)C(=O)O,-,25.39 µg/mL
CC(C)[C@H](NC(=O)N(C)Cc1ccccn1)C(=O)N[C@@H](Cc1ccccc1)[C@H](O)[C@@H](O)[C@H](Cc1ccccc1)NC(=O)[C@@H](NC(=O)N(C)Cc1ccccn1)C(C)C,-,<0.001 µM